Measurements as given in article PMC2580030.

Legend:
[1] = molecular target: recombinant soluble empty (peptide free) HLA-DR1 (human); assay: native gel or EMSA
[2] = molecular target: recombinant soluble empty (peptide free) HLA-DR1 (human)
[3] = molecular target: recombinant soluble empty (peptide free) HLA-DR1 (human); remark: listed apart in the source

For HA 306-318 peptide, fluorescein-labeled, the t1/2 [1] was 7.46 h.

QSY-7 labeled HA 306-318 peptide was tested, and the fold effect on affinity against unlabeled HA [2] was 3 fold.

unlabeled HA 306-318 peptide gave a Kd [3] of 0.0833 µM.
